Test results from paper PMC11239678, “Molecular basis for receptor recognition and broad host tropism for merbecovirus MjHKU4r-CoV-1” (2024).

How the values were obtained:
Experiment in all cases: SPR
camel CD26, camel = biological target: camel CD26, camel
cattle CD26, cattle = cattle CD26, cattle (UniProt P81425)
goat CD26, goat = biological target: goat CD26, goat
horse CD26, horse = biological target: horse CD26, horse
macaque CD26, macaque = biological target: macaque CD26, macaque
marmoset CD26, marmoset = biological target: marmoset CD26, marmoset
pig CD26, pig = pig CD26, pig (UniProt P22411)
sheep CD26, sheep = biological target: sheep CD26, sheep
[1] = biological target: Malayan pangolin CD26 (Malayan pangolin)

Row | Substance | Kd (camel CD26, camel) | Kd (cattle CD26, cattle) | Kd (goat CD26, goat) | Kd (horse CD26, horse) | Kd (macaque CD26, macaque) | Kd (marmoset CD26, marmoset) | Kd (pig CD26, pig) | Kd (sheep CD26, sheep) | Kd [1]
1 | MjHKU4r-CoV-1 spike (S) protein receptor-binding domain | 480 nM | 200 nM | 220 nM | 170 nM | 710 nM | 240 nM | 360 nM | 210 nM | 
2 | MjHKU4r-CoV-1 spike (S) protein receptor-binding domain (domain or fragment) |  |  |  |  |  |  |  |  | 300 nM
